The entries are a selection whose mix differs from that of the whole data set. Calls of active or inactive are those of the source. Cut-off read from the data, not from the text of the source: active = inhibition above about 30% (passing the limit was not always enough); inactive = the rest.

One may read the inhibition as the drop in the measured response relative to a control, in per cent.

For the test, the system named is MgrA (MarR family transcriptional regulator), Staphylococcus aureus Newman. In words: S. aureus MgrA activity modulators, primary screen, biochemical, S. aureus Newman, fluorescence polarization (AID 602314).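 Note: 0% = protein plus DNA without compound and 100% = DNA alone without protein; higher means less MgrA bound to DNA so lower polarization.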 The following applies: MgrA-DNA binding, stronger effect = higher value, concentration not given here. On the technique in general: Polarisation of emitted light reports the rotation of a fluorescent probe.
For `CCCN1CCC(Nc2cc(OC)cc(OC)c2)CC1`, the inhibition is inactive: -0.3%.

Consider `NC(=O)C1(Nc2ccccc2)CCN(Cc2ccccc2)CC1`, for which the inhibition was inactive: -1.15%.

For `CN1CCC(Nc2ccc(F)cc2)CC1`, the inhibition was inactive: -2.5%.

Turning to `CC(C)(C)OC(=O)N1CCC(Nc2ccccc2)CC1`, the inhibition was inactive: -0.45%.

`CC1CN(CCc2ccccc2)C(C)CC1=O` (configuration not stated): the inhibition was inactive: -1.35%.

Turning to `CCN1CCC(Nc2ccc(F)cc2)CC1`, the inhibition is inactive: -2.65%.

As to `CCOC(=O)N1CCC(Nc2ccc(F)cc2)CC1`, the inhibition is inactive: 0.25%.

For the compound `CCOC(=O)N1CCC(Nc2cccc(C)c2)CC1`, the inhibition is inactive: -0.7%.

Take `Cc1ccccc1NC1CC(C)(C)NC(C)(C)C1`: the inhibition was inactive: -2.8%.

As to `CCCN1CCC(Nc2ccc(OC)c(OC)c2)CC1`, the inhibition was inactive: -1.5%.

On to `CC1CN(CCc2ccccc2)CCC1=O` (configuration not stated), for which the inhibition was inactive: -1.5%.

Take `FC(F)(F)Oc1ccc(NC2CCNCC2)cc1`: the inhibition is inactive: -2.55%.

Consider `c1ccc(CN2CCC(Nc3ccc4c(c3)OCO4)CC2)cc1`, for which the inhibition is inactive: 4.1%.

On to `NC(=O)C1(Nc2ccc(F)cc2)CCNCC1`, for which the inhibition is inactive: -1.3%.

As for `CC(C)(C)OC(=O)N1CCC(Nc2ccc(OC(F)(F)F)cc2)CC1`, the inhibition is inactive: 0.75%.

Consider `N#CC(C#N)=Cc1ccc2c(c1)OCO2`, for which the inhibition was inactive: -1.3%.

Turning to `CC(C)(C)OC(=O)N1CCC(=O)CC1`, the inhibition is inactive: 3.8%.

The record behind these values is PubChem BioAssay AID602314 (ICCB-Longwood Screening Facility, Harvard Medical School, 2012).
